Data from patent EP4821928A1, “BICYCLIC HETEROCYCLIC COMPOUND AND FUNGICIDE FOR AGRICULTURAL AND HORTICULTURAL USE CONTAINING SAME AS ACTIVE INGREDIENT” (dated 2026).

What was measured:
[1] = system: Anthracnose fungus (Glomerella cingulata); test: Anthracnose anti-germ test (Test Example E); conditions: for Anthracnose anti-germ test (rate of inhibition): 50 ppm/well, Czapek-dox broth, 25°C for 3 days, absorbance 600 nm; for rate of inhibition: Test Example E, anthracnose anti-germ test
[2] = system: Botrytis cinerea; test: Tomato gray mold pot test (Test Example B); conditions: for Tomato gray mold pot test (control value): 250 ppm sprayed, 2.5 ml/pot, tomato variety Oogata Fukuju, degree of disease development 2 to 3 days after inoculation; for control value: Test Example B, tomato gray mold pot test
[3] = system: Speckled leaf blotch fungus (Septoria tritici); test: Speckled leaf blotch anti-germ test (Test Example F); conditions: for Speckled leaf blotch anti-germ test (rate of inhibition): 50 ppm/well, Czapek-dox broth, 25°C for 3 days, absorbance 600 nm; for rate of inhibition: Test Example F, speckled leaf blotch anti-germ test
[4] = system: Gray mold fungus (Botrytis cinerea); test: Gray mold anti-germ test (Test Example C); conditions: for Gray mold anti-germ test (rate of inhibition): 50 ppm/well, Czapek-dox broth, 25°C for 3 days, absorbance 600 nm; for rate of inhibition: Test Example C, gray mold anti-germ test
[5] = system: Magnaporthe grisea; test: Rice blast disease pot test (Test Example A); conditions: for Rice blast disease pot test (control value): 250 ppm sprayed, 2.5 ml/pot, rice variety Sachikaze, degree of disease development 6 to 8 days after inoculation; for control value: Test Example A, rice blast disease pot test
[6] = system: Fusarium blight fungus (Fusarium graminearum); test: Fusarium blight anti-germ test (Test Example D); conditions: for Fusarium blight anti-germ test (rate of inhibition): 50 ppm/well, Czapek-dox broth, 25°C for 3 days, absorbance 600 nm; for rate of inhibition: Test Example D, Fusarium blight anti-germ test

Compound	Anthracnose anti-germ test (rate of inhibition) [1]	Tomato gray mold pot test (control value) [2]	Speckled leaf blotch anti-germ test (rate of inhibition) [3]	Gray mold anti-germ test (rate of inhibition) [4]	Rice blast disease pot test (control value) [5]	Fusarium blight anti-germ test (rate of inhibition) [6]	rate of inhibition [1]	control value [2]	rate of inhibition [3]	rate of inhibition [4]	control value [5]	rate of inhibition [6]
CCNc1ccc2c(c1)OC(C)(C)N=C2n1cnc2c(C)c(C)ccc21	H (H represents a control value or rate of inhibition of larger than 50%)	H (H represents a control value or rate of inhibition of larger than 50%)	H (H represents a control value or rate of inhibition of larger than 50%)	H (H represents a control value or rate of inhibition of larger than 50%)	H (H represents a control value or rate of inhibition of larger than 50%)	H (H represents a control value or rate of inhibition of larger than 50%)						
Cc1cc(C)c2c(c1)C(n1cnc3c(Cl)cccc31)=NC(C)(C)O2	L (L represents a control value or rate of inhibition of 50% or less)	L (L represents a control value or rate of inhibition of 50% or less)	L (L represents a control value or rate of inhibition of 50% or less)	L (L represents a control value or rate of inhibition of 50% or less)	H (H represents a control value or rate of inhibition of larger than 50%)	L (L represents a control value or rate of inhibition of 50% or less)						
C=C(C)c1cccc2c1ncn2C1=NC(C)(C)Oc2c(C)cccc21	H (H represents a control value or rate of inhibition of larger than 50%)	L (L represents a control value or rate of inhibition of 50% or less)	L (L represents a control value or rate of inhibition of 50% or less)	H (H represents a control value or rate of inhibition of larger than 50%)	H (H represents a control value or rate of inhibition of larger than 50%)	L (L represents a control value or rate of inhibition of 50% or less)						
Cc1ccc2c(C3=NC(C)(C)Sc4ccccc43)cnn2c1C	H (H represents a control value or rate of inhibition of larger than 50%)	H (H represents a control value or rate of inhibition of larger than 50%)	H (H represents a control value or rate of inhibition of larger than 50%)	H (H represents a control value or rate of inhibition of larger than 50%)	H (H represents a control value or rate of inhibition of larger than 50%)	H (H represents a control value or rate of inhibition of larger than 50%)						
Cc1ccnc2c(C3=NC(C)(C4CC4)Oc4ccccc43)cnn12 (stereo not drawn)							H (H represents a control value or rate of inhibition of larger than 50%)	H (H represents a control value or rate of inhibition of larger than 50%)	L (L represents a control value or rate of inhibition of 50% or less)	H (H represents a control value or rate of inhibition of larger than 50%)	H (H represents a control value or rate of inhibition of larger than 50%)	H (H represents a control value or rate of inhibition of larger than 50%)
COc1cccc2c1OC(C)(C)N=C2n1cnc2c(C)c(Cl)ccc21	H (H represents a control value or rate of inhibition of larger than 50%)	H (H represents a control value or rate of inhibition of larger than 50%)	L (L represents a control value or rate of inhibition of 50% or less)	H (H represents a control value or rate of inhibition of larger than 50%)	L (L represents a control value or rate of inhibition of 50% or less)	L (L represents a control value or rate of inhibition of 50% or less)						
Cc1cccc2c1S(=O)(=O)C(C)(C)N=C2n1cnc2c(C)c(C)ccc21	H (H represents a control value or rate of inhibition of larger than 50%)	H (H represents a control value or rate of inhibition of larger than 50%)	H (H represents a control value or rate of inhibition of larger than 50%)	H (H represents a control value or rate of inhibition of larger than 50%)	H (H represents a control value or rate of inhibition of larger than 50%)	H (H represents a control value or rate of inhibition of larger than 50%)						
COCCC1(C)N=C(n2cnc3c(C)c(C)ccc32)c2ccc(C)cc2O1 (stereo not drawn)	H (H represents a control value or rate of inhibition of larger than 50%)	H (H represents a control value or rate of inhibition of larger than 50%)	H (H represents a control value or rate of inhibition of larger than 50%)	H (H represents a control value or rate of inhibition of larger than 50%)	H (H represents a control value or rate of inhibition of larger than 50%)	H (H represents a control value or rate of inhibition of larger than 50%)						
COCCC1(C)N=C(c2cnc3c(C)c(C)ccn23)c2ccccc2O1 (stereo not drawn)							H (H represents a control value or rate of inhibition of larger than 50%)	H (H represents a control value or rate of inhibition of larger than 50%)	H (H represents a control value or rate of inhibition of larger than 50%)	H (H represents a control value or rate of inhibition of larger than 50%)	H (H represents a control value or rate of inhibition of larger than 50%)	H (H represents a control value or rate of inhibition of larger than 50%)
CCCC1(C)N=C(c2cnn3c(C)c(C)cnc23)c2ccc(F)c(F)c2O1 (stereo not drawn)							H (H represents a control value or rate of inhibition of larger than 50%)	H (H represents a control value or rate of inhibition of larger than 50%)	H (H represents a control value or rate of inhibition of larger than 50%)	H (H represents a control value or rate of inhibition of larger than 50%)	H (H represents a control value or rate of inhibition of larger than 50%)	H (H represents a control value or rate of inhibition of larger than 50%)
CCOCC1(C)N=C(c2cnn3cccc(C)c23)c2ccccc2O1 (stereo not drawn)							H (H represents a control value or rate of inhibition of larger than 50%)	L (L represents a control value or rate of inhibition of 50% or less)	L (L represents a control value or rate of inhibition of 50% or less)	L (L represents a control value or rate of inhibition of 50% or less)	H (H represents a control value or rate of inhibition of larger than 50%)	L (L represents a control value or rate of inhibition of 50% or less)
CCC1(C)N=C(n2cnc3c(C)c(C)ccc32)c2cccc(C)c2O1 (stereo not drawn)	H (H represents a control value or rate of inhibition of larger than 50%)	H (H represents a control value or rate of inhibition of larger than 50%)	H (H represents a control value or rate of inhibition of larger than 50%)	H (H represents a control value or rate of inhibition of larger than 50%)	H (H represents a control value or rate of inhibition of larger than 50%)	H (H represents a control value or rate of inhibition of larger than 50%)						
Cc1ccc2c(c1)OC(C)(CS(C)(=O)=O)N=C2n1cnc2c(C)c(C)ccc21 (stereo not drawn)	H (H represents a control value or rate of inhibition of larger than 50%)	H (H represents a control value or rate of inhibition of larger than 50%)	L (L represents a control value or rate of inhibition of 50% or less)	H (H represents a control value or rate of inhibition of larger than 50%)	H (H represents a control value or rate of inhibition of larger than 50%)	H (H represents a control value or rate of inhibition of larger than 50%)						
Cc1c(F)ccc2c1ncn2C1=NC(C)(C)Oc2c(Cl)cccc21	H (H represents a control value or rate of inhibition of larger than 50%)	H (H represents a control value or rate of inhibition of larger than 50%)	L (L represents a control value or rate of inhibition of 50% or less)	H (H represents a control value or rate of inhibition of larger than 50%)	H (H represents a control value or rate of inhibition of larger than 50%)	H (H represents a control value or rate of inhibition of larger than 50%)						
